{"source": "patent US20030017483A1", "about": "“Modulation of molecular interaction sites on RNA and other biomolecules” (priority 1998, published 2003)", "test_system": "27-mer RNA/DNA chimeric corresponding to the 16S rRNA A site", "assay": "ESI-MS and CID of 27-mer RNA/DNA chimeric with ligands", "format": "binding", "data": [{"smiles": "NC[C@@H]1O[C@H](O[C@H]2[C@@H](O)[C@H](O[C@@H]3[C@@H](O)[C@H](N)C[C@H](N)[C@H]3O[C@H]3O[C@H](CO)[C@@H](O)[C@H](O)[C@H]3N)O[C@@H]2CO)[C@H](N)[C@@H](O)[C@@H]1O", "note": "[Paromomycin]", "values": [{"measurement": "stoichiometry of complex with 27-mer", "setting": "10 μM RNA, 150 nM paromomycin, ESI-MS", "result": "only a 1:1 complex"}, {"measurement": "location of binding on the target (CID fragmentation/protection)", "setting": "ESI-CID-MS", "result": "no fragmentation at the dA sites"}]}]}
